Experimental data reported in patent publication US20200206342A1 (BOARD OF TRUSTEES OF THE UNIVERSITY OF ILLINOIS, published 2020).

Molecular target: T1, soluble CD4 sCD[…] (domains D1-D2)
T1 construct: domain: D1-D2; also called CD4(D1-D2); sCD4(D1D2)
Experiment: flow cytometry titration, Expi293F cells expressing the Env, FITC anti-CD4 [Q842.d12 panel]

B1: Q842.d12 Env gp160 wildtype (other)
chain: not shown
notes: substitutions of the variants are in HXB2 numbering; also called EnvQ842.d12; CD5-Q842.d12 gp160
Question: Does B1 bind?
Answer: binds
